Data: patent US7157083B2, “Compositions and methods for treating retroviral infections” (priority 1998, dated 2007)

Columns and labels:
[1] = test system: ROJO (low passage HIV-1); assay: Study 2 hyaluronidase chronic overlay testing: RT activity after secondary ROJO infection; assay type: cell-based; settings: Table 5; 2.5 units/mL; control uninfected PBMCs; Macrophage + PBMCs
Source text: (§1) Percent virus control (% VC) in the following tables is the mean RT activity (cpm) as a percentage of a virus control. Percent cell control (% CC) is the mean XTT absorbance as a percentage of a cell control.
Method A. Peripheral blood monocytes were isolated from normal HIV-1 negative donors by plastic adherence following ficall hypaque purification of the buffy coat PBMCs. For isolation of adherent cells, 3×10^6/ml non-PHA stimulated peripheral blood cells were resuspended in Hanks buffered saline (with calcium and magnesium) supplemented with 10% human AB serum, and 200 μl per well placed in a 96 well lat bottomed microtiter plate. The cells were incubated overnight at 37° C., 5% CO2. Non-adherent cells were removed by washing six time with a Ca^++, Mg^++ containing medium. The adherent cells after the final wash were supplemented with RPMI 1640 supplemented with 15% fetal bovine serum (heat inactivated), 2 mM L-glutamine, 100 U/mL penicillin, 100 μg/mL streptomycin and 10 μg/mL gentamycin, and cultured for 7 days. […] The cultures are carefully monitored for confluency prior to assay.
Reverse transcriptase (RT) activity was measured in cell-free supernatants. […] Opti-Fluor O was added to each sample and incorporated radioactivity was quantitated utilizing a Wallace 1450 Microbetaplus liquid scintillation counter. […]

[2] = test system: PBMCs; assay: Study 2 hyaluronidase chronic overlay testing: cell viability (XTT); assay type: cell-based, human
Protocol: as §1
Assay method. Seven day old Rojo chronically infected (and uninfected control) PBMCs are pre-treated with two fold dilutions of HLDA-1 for 48 hours. Treated cells are 2× washed with PBS and overlayed onto seven day old macrophages for 72 hours at which time the PBMCs were washed off and replaced with fresh uninfected pha blast PBMCs in the presence of IL-1 (5.0 ng/mL) and IL-2 (20U/mL). Overlayed cells are incubated for 48 hours 50% of cells transferred to a fresh 96 well plate, and then both the original and transfer plate infected with ROJO at a standard MOI. Samples for reverse transcriptase and toxicity testing were processed on day 7 post secondary infection.

[3] = test system: Rojo virus; assay: Study 3 hyaluronidase sensitization assay: RT activity after Rojo challenge of naive PBMCs; assay type: cell-based, HIV-1; settings: 0.78 μg/mL; 50 μL Rojo; Without PHA/IL2
Protocol: as §1
(§2) Reverse transcriptase (RT) activity was measured in cell-free supernatants. Tritiated thymidine triphosphate (NEN) (TTP) was resuspended in distilled H2O at […]. Poly rA and oligo dT were prepared as a stock solution which was kept at −20° C. The RT reaction buffer was prepared fresh on a daily basis and consists of 125 μL 1.0 M EGTA, 125 μL d H2O, 110 μL 10% SDS, 50 μL 1.0 M Tris (pH 7.4), 50 μL 1.0 M DTT, and 40μ1.0 M MgCl2. These three solutions were mixed together in a ratio of 2 parts TTP, 1 part poly rA:oligo dT, and 1 part reaction buffer. Ten microliters of this reaction mixture was placed in a round bottom microtiter plate and 15 μL of virus containing supernatant was added and mixed. The plate was incubated at 37° C. in a water bath with a solid support to prevent submersion of the plate and incubated for 60 minutes. […] Opti-Fluor O was added to each sample and incorporated radioactivity was quantitated utilizing a Wallace 1450 Microbetaplus liquid scintillation counter. […]

[4] = test system: IIIB (HIV IIIB virus); assay: Study 4 sensitization, Turpin and standard macrophages: RT activity after IIIB challenge; assay type: cell-based; settings: IIIB Sensitized, Turpin
Protocol: as §1
as §2, with “mixed.” for “mixed. The plate was incubated at 37° C. in a water bath with a solid support to prevent submersion of the plate and incubated for 60 minutes.”
(§3) Where viability corrections were conducted, they were performed by dividing the RT CPM value by the toxicity absorbance in order to compensate for well to well variations noted in the cell titer toxicity noted.

[5] = test system: ROJO (low passage HIV-1); assay: Study 4 sensitization, Turpin and standard macrophages: RT activity after Rojo challenge; assay type: cell-based; settings: Rojo Sensitized
Protocol: as §1
(§4) In the following set of experiments, virus {IIIB(Dec. 1, 2000-4 uL/well), GP120 IIIB (0.5 u g/mL) and Rojo(Oct. 23, 2000-1.25 uL/well)} was treated overnight in 2 fold dilutions of the compound Hyaluronidase and then transferred to two types of macrophage (Turpin and Standard methodology) 96 well plates for 24 hours. (Turpin methodology differs from standard methodology in that it utilizes purer, more sensitive macrophages having a higher percentage of monocytes and macrophages). The macrophage plates were then washed with HBSS multiple times. Fresh mixed pha blast PBMCs (5×10e4/well) were placed on the macrophage cells, allowed to incubate for 72 hours and then harvested and reset in a fresh 96 well plate. The PBMCs were then challenged overnight with the respective virus (IIIB or Rojo) at a standard MOI for that virus. The PBMCs were 5× in plate spin washed with DPBS, incubated 24 hours, at which time 5×10e4 fresh pha blast PBMCs/well were added. The culture was incubated an additional 6 days and then assayed for RT activity.
as §3, with “noted. Variance is believed to be due to well to well harvest inconsistencies when removing the PBMCs from the macrophage plates.” for “noted.”

[6] = test system: PBMCs; assay: Study 4 sensitization: cell viability; assay type: cell-based, human
Protocol: as §1, §4
as §3, with “noted. Variance is believed to be due to well to well harvest inconsistencies when removing the PBMCs from the macrophage plates.” for “noted.”

In the case of Hyaluronidase, the “RT activity % VC” value [1] was 91.6%, the “cell viability % CC” value ([2]; Table 4, 5 units/mL, Rojo chronic PBMCs, Macrophage + PBMCs) was 115.5% and the “cell viability % CC” value ([2]; Table 4, 7.5 units/mL, Rojo chronic PBMCs, Transfer PBMCs) was 111.9%. The “cell viability % CC” value ([2]; Table 4, 15 units/mL, Rojo chronic PBMCs, Macrophage + PBMCs) was 107.4%, the “cell viability % CC” value ([2]; Table 4, 15 units/mL, Rojo chronic PBMCs, Transfer PBMCs) was 104.9% and the “cell viability % CC” value ([2]; Table 4, 20 units/mL, Rojo chronic PBMCs, Transfer PBMCs) was 97.3%. For the same substance, the “cell viability % CC” value ([2]; Table 4, 20 units/mL, control uninfected PBMCs, Transfer PBMCs) was 111.1%, the “cell viability % CC” value ([2]; Table 5, 2.5 units/mL, control uninfected PBMCs, Macrophage + PBMCs) was 85.6% and the “cell viability % CC” value ([2]; Table 5, 3.75 units/mL, Rojo chronic PBMCs, Macrophage + PBMCs) was 120.6%. The “cell viability % CC” value ([2]; Table 5, 5 units/mL, Rojo chronic PBMCs, Transfer PBMCs) was 110.2%, the “RT activity % VC” value [3] was 111.9% and the “RT activity % VC” value ([4]; 0.390625 μg/mL) was 84.5%. The “RT activity % VC” value ([4]; 3.125 μg/mL) was 86.5%, the “RT activity % VC” value ([5]; 0.097656 μg/mL, Standard) was 82.2% and the “RT activity % VC” value ([5]; 0.195313 μg/mL, Standard) was 91.8%. For the same substance, the “RT activity % VC” value ([5]; 0.195313 μg/mL, Turpin) was 82.9%, the “RT activity % VC” value ([5]; viability corrected, 0.195313 μg/mL, Standard) was 82.5% and the “RT activity % VC” value ([5]; viability corrected, 0.390625 μg/mL, Turpin) was 85.0%. The “cell viability % CC” value ([6]; 0.097656 μg/mL, IIIB Sensitized, Turpin) was 102.4%, the “cell viability % CC” value ([6]; 0.097656 μg/mL, Rojo Sensitized, Standard) was 124.4% and the “cell viability % CC” value ([6]; 0.097656 μg/mL, Rojo Sensitized, Turpin) was 92.3%. For the same substance, the “cell viability % CC” value ([6]; 0.195313 μg/mL, GP120IIIB Sensitized, Standard) was 122.8%, the “cell viability % CC” value ([6]; 0.195313 μg/mL, GP120IIIB Sensitized, Turpin) was 98.4% and the “cell viability % CC” value ([6]; 0.195313 μg/mL, IIIB Sensitized, Standard) was 124.7%. For the same substance, the “cell viability % CC” value ([6]; 0.195313 μg/mL, IIIB Sensitized, Turpin) was 86.5%, the “cell viability % CC” value ([6]; 0.195313 μg/mL, Rojo Sensitized, Turpin) was 98.6% and the “cell viability % CC” value ([6]; 0.390625 μg/mL, GP120IIIB Sensitized, Standard) was 120.0%. The “cell viability % CC” value ([6]; 0.390625 μg/mL, IIIB Sensitized, Turpin) was 84.8%, the “cell viability % CC” value ([6]; 0.390625 μg/mL, Rojo Sensitized, Standard) was 98.6% and the “cell viability % CC” value ([6]; 0.390625 μg/mL, Rojo Sensitized, Turpin) was 81.3%. For the same substance, the “cell viability % CC” value ([6]; 0.78125 μg/mL, GP120IIIB Sensitized, Standard) was 95.0%, the “cell viability % CC” value ([6]; 0.78125 μg/mL, GP120IIIB Sensitized, Turpin) was 90.8% and the “cell viability % CC” value ([6]; 0.78125 μg/mL, IIIB Sensitized, Standard) was 110.7%. The “cell viability % CC” value ([6]; 0.78125 μg/mL, IIIB Sensitized, Turpin) was 109.1%, the “cell viability % CC” value ([6]; 0.78125 μg/mL, Rojo Sensitized, Turpin) was 86.3% and the “cell viability % CC” value ([6]; 1.5625 μg/mL, GP120IIIB Sensitized, Standard) was 104.2%. For the same substance, the “cell viability % CC” value ([6]; 1.5625 μg/mL, IIIB Sensitized, Standard) was 106.6%, the “cell viability % CC” value ([6]; 1.5625 μg/mL, IIIB Sensitized, Turpin) was 90.2% and the “cell viability % CC” value ([6]; 1.5625 μg/mL, Rojo Sensitized, Standard) was 110.1%. For the same substance, the “cell viability % CC” value ([6]; 1.5625 μg/mL, Rojo Sensitized, Turpin) was 88.7%, the “cell viability % CC” value ([6]; 3.125 μg/mL, GP120IIIB Sensitized, Standard) was 109.2% and the “cell viability % CC” value ([6]; 3.125 μg/mL, GP120IIIB Sensitized, Turpin) was 87.4%. For the same substance, the “cell viability % CC” value ([6]; 3.125 μg/mL, IIIB Sensitized, Turpin) was 80.3%, the “cell viability % CC” value ([6]; 3.125 μg/mL, Rojo Sensitized, Standard) was 103.8% and the “cell viability % CC” value ([6]; 3.125 μg/mL, Rojo Sensitized, Turpin) was 82.3%. For the same substance, the “cell viability % CC” value ([6]; 6.25 μg/mL, GP120IIIB Sensitized, Standard) was 115.1%, the “cell viability % CC” value ([6]; 6.25 μg/mL, Rojo Sensitized, Standard) was 102.8% and the “cell viability % CC” value ([6]; 6.25 μg/mL, Rojo Sensitized, Turpin) was 81.0%. For the same substance, the “cell viability % CC” value ([6]; 12.5 μg/mL, GP120IIIB Sensitized, Standard) was 123.1%, the “cell viability % CC” value ([6]; 12.5 μg/mL, IIIB Sensitized, Standard) was 101.5% and the “cell viability % CC” value ([6]; 12.5 μg/mL, IIIB Sensitized, Turpin) was 128.5%. The “cell viability % CC” value ([6]; 12.5 μg/mL, Rojo Sensitized, Standard) was 103.1%, the “cell viability % CC” value ([6]; 12.5 μg/mL, Rojo Sensitized, Turpin) was 81.8% and the “cell viability % CC” value ([6]; 25 μg/mL, GP120IIIB Sensitized, Standard) was 87.1%. For the same substance, the “cell viability % CC” value ([6]; 25 μg/mL, GP120IIIB Sensitized, Turpin) was 91.4%, the “cell viability % CC” value ([6]; 25 μg/mL, IIIB Sensitized, Standard) was 82.1% and the “cell viability % CC” value ([6]; 25 μg/mL, IIIB Sensitized, Turpin) was 91.6%. The “cell viability % CC” value ([6]; 25 μg/mL, Rojo Sensitized, Standard) was 92.9%.
